Pooled drug test results. Numbers come from NIAID ChemDB, via PubChem.

All rows: target-level tests; agent: Hepatitis C virus; protein: Nonstructural protein 5B; endpoint: IC50

An empty or dashed field is not shown. Neighbouring rows are from separate reports. ICn: concentration for n% inhibition. a–b is a range or a potency band.

smiles,strain or isolate,method,result
COc1cc(OC)c(CCC2(C3CCCC3)CC(O)=C(Sc3ncn[nH]3)C(=O)O2)cc1Cl,-,-,<1 µM
CNC(=O)c1c(-c2ccc(F)cc2)oc2cc(N(CS(C)(=O)=O)c3cscn3)c(OC(C)C)cc12,-,-,≤0.5 µM
CON1C(Nc2ccc3cn[nH]c3c2)=NC(NC(C)C)=NC1NC(C)C,-,-,>10 µg/mL
O=C(O)CCN1C(=O)C(=Cc2ccc(-c3cccc(Cl)c3)o2)SC1=S,-,-,≤1 µM
COc1cccc(CC2C(=O)CC(CCc3ccc(OC)c(OC)c3)(C3CCCC3)OC2=O)c1,-,-,1–10 µM
CCOC(=O)C1=CN(N2CCN(c3nc(Nc4ccc5cn[nH]c5c4)nc(OC)n3)CC2)C(SC)N=C1,-,-,>10 µg/mL
O=C(O)c1ccc(-n2c(O)c(C=c3cc/c(=C4\C=c5ccccc5=N4)o3)sc2=S)cc1,-,-,≤1 µM
CCCN(C1=C(O)CC(C2CCCC2)(C2CCCC2)OC1=O)c1cccc(NS(=O)(=O)c2ccccn2)c1,-,-,10–50 µM
COc1c(-c2ccc3cc(NS(C)(=O)=O)ccc3c2)cc(-n2ccc(=O)[nH]c2=O)cc1C(C)(C)C,GT 1a#1,nucleotide incorporation,0.0024 µM
COc1ccc(Oc2cccc(CCC3(C4CCCC4)CC(O)=CC(=O)O3)c2)cc1,-,-,10–50 µM
CNC(=O)c1c(-c2ccc(F)cc2)oc2cc(N(C)S(C)(=O)=O)c(OCc3nnsc3Cl)cc12,-,-,≤0.5 µM
O=C1C=C(O)CC(CCc2ccc(OCc3ccc(Cl)c(Cl)c3)cc2)(C2CCCC2)O1,-,-,10–50 µM
CNC(=O)c1c(-c2ccc(F)cc2)oc2cc(-c3nocc3CCO)c(OC)cc12,-,-,≤0.5 µM
COc1nc(Nc2ccc3cn[nH]c3c2)nc(N2CCN(CCO)CC2)n1,-,-,0.1–1 µg/mL
Cc1cccc(CCC2(C3CCCC3)CC(=O)CC(=O)O2)c1,-,-,10–50 µM
COc1nc(NCCCn2ccnc2)nc(Nc2ccc3[nH]ncc3c2)n1,-,-,0.1–1 µg/mL
CNC(=O)c1c(-c2ccc(F)cc2)oc2cc(S(=O)(=O)N3CCSCC3)c(OC(C)C)cc12,-,-,≤0.5 µM
O=C(O)c1ccc(N2C(=O)C(=Cc3ccc(-c4ccccc4[N+](=O)[O-])o3)SC2=S)cc1,-,-,≤1 µM
COc1nc(NCCO)nc(Nc2ccc3cn[nH]c3c2)n1,-,-,0.1–1 µg/mL
COc1ccc(CCC2(C3CCCC3)CC(=O)C(C(C)=O)C(=O)O2)c(OC)c1,-,-,10–50 µM
CNC(=O)c1c(-c2ccc(F)cc2)oc2cc(N3CCOCC3)c(OC(F)F)cc12,-,-,≤0.5 µM
O=C(O)c1ccc(N2C(=O)C(=Cc3ccc(-c4cc(C(F)(F)F)cc(C(F)(F)F)c4)o3)SC2=S)cc1,-,-,≤1 µM
COc1cc(OC)c(CCC2(C3CCCC3)CC(O)=C(Sc3cnccn3)C(=O)O2)cc1Cl,-,-,<1 µM
O=C(O)c1ccc(N2C(=O)C(=Cc3ccc(-c4ccc(Cl)s4)o3)SC2=S)cc1,-,-,≤1 µM
COc1nc(NCCN(C)C)nc(Nc2ccc3[nH]ncc3c2)n1,-,-,>10 µg/mL
O=C(O)CCN1C(=O)C(=Cc2ccc(-c3cccs3)s2)SC1=S,-,-,≤1 µM
COc1nc(Nc2ccc3cn[nH]c3c2)nc(NC2CC2)n1,-,-,0.1–1 µg/mL

Repeating the first 3 entries:

COc1cc(OC)c(CCC2(C3CCCC3)CC(O)=C(Sc3ncn[nH]3)C(=O)O2)cc1Cl ; result: <1 µM
CNC(=O)c1c(-c2ccc(F)cc2)oc2cc(N(CS(C)(=O)=O)c3cscn3)c(OC(C)C)cc12 ; result: ≤0.5 µM
CON1C(Nc2ccc3cn[nH]c3c2)=NC(NC(C)C)=NC1NC(C)C ; result: >10 µg/mL